Laboratory results taken from publication PMC5241705 (ACS Infectious Diseases, 2016).

Molecular target: Mth GuaB2 ΔCBS (Mycolicibacterium thermoresistibile, UniProt G7CNL4, R236G)
Assay: biochemical

## O=C(C1CCCCC1)N1CCN(S(=O)(=O)c2cccc3cnccc23)CC1 [VCC234718, N-(5-Isoquinolinylsulfonyl)-N’-cyclohexanoyl-piperazine]
  Ki: 130 nM
